For three compounds, EC50 and Ki results are on record in patent US7132420B2, “Aspartic protease inhibitors” (The United States of America as represented by the …, priority 1999, dated 2006).

The pEC50 is −log10 of the EC50, conventionally taken in molar units.

pEC50, pKi: −log10 of the molar value.

In one assay the test system is HIV-1. In words: HIV antiviral assay (EC50). As to conditions: read-out: HIV-1 EC50; Table 1.
Another assay addresses HIV-1 protease (Human immunodeficiency virus type 1 group M subtype B, UniProt P04585). Description: HIV protease assay (Ki). As to conditions: read-out: HIV-1 Ki; Table 1.
Assay [1] concerns the target 84V mutant HIV-1 protease (Human immunodeficiency virus type 1 group M subtype B, UniProt P04585, I572V). Description: HIV protease assay, 84V mutant (Ki). Format: biochemical. To be noted: read-out: 84 V Ki; Table 1. An excerpt: This example illustrates the HIV-1 protease inhibition activity (Ki), HIV-1 antiviral data (EC50), and the toxicity against normal cells (IC50), for particular compounds of formula (I). The HIV protease assay was done according to the protocol described in Kageyama et al, Antimicrob. Agents Chemother., 37, 272 (1993). The HIV antiviral assay was done according to the protocol described in Weislow et al., J. National Cancer Inst. 81, 577 (1989).

For assay [2], the target named is 82F/84V mutant HIV-1 protease (Human immunodeficiency virus type 1 group M subtype B, UniProt P04585, I572V/V570F). As to conditions: read-out: 82 F/84 V Ki; Table 1.

Regarding `COc1ccc(S(=O)(=O)N(Cc2ccccc2)[C@H](C(=O)N[C@@H](CC(C)C)C[C@H](O)[C@H](Cc2ccccc2)NC(=O)COc2c(C)cccc2C)C(C)C)cc1`, the pEC50 with HIV-1 is 7.30. In addition, the pKi on HIV-1 protease is 11.39.

For `Cc1cccc(C)c1OCC(=O)N[C@@H](Cc1ccccc1)[C@@H](O)C[C@H](CC(C)C)NC(=O)[C@H](C(C)C)N1CCCC1=O`, the negative logarithm of the EC50 (pEC50) in the assay on HIV-1 is 9.40. Moreover, the pKi on HIV-1 protease was 11.08.

For `CC(C)C[C@@H](C[C@H](O)[C@H](Cc1ccccc1)NC(=O)C(NC(=O)OCc1ccccn1)C(C)C)NC(=O)C(NC(=O)OCc1ccccn1)C(C)C` (some centres unmarked), in the assay on HIV-1, the pEC50 is 7.04. The pKi in assay [1] is 10.64; in assay [2], 10.60; on HIV-1 protease, 11.30.
